Laboratory results: PubChem BioAssay AID624099 (ICCB-Longwood, 2012)

Test: 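Human genes that papillomavirus E2 requires to repress the HPV18 LCR promoter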 (primary screen)
Cell system: human C33A cervical carcinoma cells (HPV-negative) stably expressing BPV1 E2 and an HPV18 LCR luciferase reporter
Knock-down reagent: siRNA pool against human genes, 40 nM
Time to read-out: 72 h
Read-out: 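Per-well luciferase luminescence, z-scored on each plate against the plate mean and SD with control wells left out, then averaged across three replicate plates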
Direction: mean z-score and z-score: higher = stronger reporter signal, weaker E2 silencing
Hit rule: 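Mean z ≥ 2 together with z ≥ 2 in two or more of the three replicates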
The whole screen tested about 21,000 reagents; this is an unselected part. In the full data, 497 (2.4%) are marked active. 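Higher z means weaker E2 silencing; only reporter increases were scored, and knock-downs that hurt cell survival may mask genuine repressor factors.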 Entries without a mark were called inactive. The numbers tell different reagents against one gene apart.

KCNA4 (potassium voltage-gated channel subfamily A member 4): mean z-score = -1.17; z-score, replicate A = -1; z-score, replicate B = -1.3; z-score, replicate C = -1.22
ADAMTSL5 (ADAMTS like 5): mean z-score = 0.97; z-score, replicate A = 1.04; z-score, replicate B = 0.79; z-score, replicate C = 1.08
CDHR3 (cadherin related family member 3): mean z-score = 0.6; z-score, replicate A = 0.77; z-score, replicate B = 0.69; z-score, replicate C = 0.36
RNGTT (RNA guanylyltransferase and 5'-phosphatase): mean z-score = 0.24; z-score, replicate A = 0.49; z-score, replicate B = -0.05; z-score, replicate C = 0.29
DHCR7 (7-dehydrocholesterol reductase): mean z-score = 1.27; z-score, replicate A = 1.04; z-score, replicate B = 1.23; z-score, replicate C = 1.55
TM6SF2 (transmembrane 6 superfamily member 2): mean z-score = 1.13; z-score, replicate A = 0.99; z-score, replicate B = 0.86; z-score, replicate C = 1.54
LOC388819 (retired record): mean z-score = 1.5; z-score, replicate A = 1.35; z-score, replicate B = 1.99; z-score, replicate C = 1.16
CYP51A1 (cytochrome P450 family 51 subfamily A member 1): mean z-score = 1.4; z-score, replicate A = 1.42; z-score, replicate B = 1.22; z-score, replicate C = 1.56
CLEC1B (C-type lectin domain family 1 member B): mean z-score = 1.04; z-score, replicate A = 1.08; z-score, replicate B = 1.07; z-score, replicate C = 0.98
NUBP2 (NUBP iron-sulfur cluster assembly factor 2, cytosolic): mean z-score = 0.75; z-score, replicate A = 0.38; z-score, replicate B = 1.05; z-score, replicate C = 0.81
LYPD3 (LY6/PLAUR domain containing 3): mean z-score = 0.52; z-score, replicate A = 0.37; z-score, replicate B = 0.59; z-score, replicate C = 0.61
ASXL3 (ASXL transcriptional regulator 3): mean z-score = -0.61; z-score, replicate A = -0.51; z-score, replicate B = -0.64; z-score, replicate C = -0.68
SS18L2 (SS18 like 2): mean z-score = 1.94; z-score, replicate A = 2.53; z-score, replicate B = 1.91; z-score, replicate C = 1.39
HEPACAM (hepatic and glial cell adhesion molecule): mean z-score = -0.01; z-score, replicate A = 0.38; z-score, replicate B = -0.39; z-score, replicate C = -0.02
GRK1 (G protein-coupled receptor kinase 1): mean z-score = 2.13 (active); z-score, replicate A = 2.35; z-score, replicate B = 1.94; z-score, replicate C = 2.09
ARHGAP30 (Rho GTPase activating protein 30): mean z-score = 0.37; z-score, replicate A = 0.19; z-score, replicate B = 0.61; z-score, replicate C = 0.31
TSPAN17 (tetraspanin 17): mean z-score = -0.6; z-score, replicate A = -0.43; z-score, replicate B = -0.65; z-score, replicate C = -0.72
VN2R9P (vomeronasal 2 receptor 9, pseudogene): mean z-score = -0.75; z-score, replicate A = -0.37; z-score, replicate B = -0.75; z-score, replicate C = -1.15
THAP3 (THAP domain containing 3): mean z-score = -1.32; z-score, replicate A = -1.3; z-score, replicate B = -1.47; z-score, replicate C = -1.2
CPNE6 (copine 6): mean z-score = -0.41; z-score, replicate A = -0.27; z-score, replicate B = -0.42; z-score, replicate C = -0.56
C10orf67 (chromosome 10 open reading frame 67) #1: mean z-score = -0.25; z-score, replicate A = -0.52; z-score, replicate B = -0.37; z-score, replicate C = 0.13
C10orf67 (chromosome 10 open reading frame 67) #2: mean z-score = 1.22; z-score, replicate A = 1.28; z-score, replicate B = 1.23; z-score, replicate C = 1.16
LINC02716 (long independently transcribed non-coding RNA 2716): mean z-score = 0.58; z-score, replicate A = 0.23; z-score, replicate B = 0.66; z-score, replicate C = 0.84
NABP1 (nucleic acid binding protein 1): mean z-score = 0.7; z-score, replicate A = 0.66; z-score, replicate B = 0.71; z-score, replicate C = 0.71
WNT5A (Wnt family member 5A): mean z-score = 1.05; z-score, replicate A = 1; z-score, replicate B = 1.31; z-score, replicate C = 0.83
SIAH3 (siah E3 ubiquitin protein ligase family member 3): mean z-score = 1.18; z-score, replicate A = 1.2; z-score, replicate B = 1.19; z-score, replicate C = 1.16
SLC30A6: mean z-score = -0.13; z-score, replicate A = 0.29; z-score, replicate B = -0.31; z-score, replicate C = -0.35
